A mixed list of measured activities; the numbers were collected in NIAID ChemDB.

Shared fields: growth or infection tests; organism: Mycobacterium tuberculosis

Neighbouring rows are from separate reports.

compound,tested at,conditions,strain,read by,measure,result
O=C(Cc1csc2nc(-c3ccccc3)cn12)N/N=C/c1cccs1,12.5 µg/mL,,H37Rv,,inhibition,48%
O=[N+]([O-])c1ccc(Oc2cnc3nc(-c4cccc([N+](=O)[O-])c4)[nH]c3c2)cc1,,,H37Rv,resazurin / absorbance,MIC80,2.6 µM
O=C(Cc1csc2nc(-c3ccccc3)cn12)N/N=C/c1ccc(C(=O)O)cc1,,,H37Rv,,MIC,>12.5 µg/mL
O=C(Cc1cccs1)N[C@@H]1C(=O)N2C(C(=O)[O-])=C(C[n+]3ccccc3)CS[C@H]12,,,Isolate 2,,MIC,8 µg/mL
CC(C)C[C@@H]1NC(=O)[C@H](Cc2c[nH]c3ccccc23)NC(=O)[C@@H](CCCN=C(N)N)NC(=O)[C@H](CC(N)=O)NC(=O)[C@H](C(C)C)NC(=O)[C@@H](CC(C)C)NC1=O,,,H37Rv,turbidity,EC50,1.03 µM
CC1COc2c(N3CCN(C)CC3)c(F)cc3c(=O)c(C(=O)O)cn1c23,,,H37Rv,,MIC,1 µg/mL
CCOC(=O)c1[nH]cc(C)c1-c1cc2c(-c3ccccc3)nc3ccccc3n2c1,,,H37Rv,,MIC,<12.5 µg/mL
CCCCCCCCc1ccc(OCCOC(=O)/C=C\C(=O)NC(N)=O)cc1,12.5 µg/mL,,H37Rv,BACTEC,inhibition,89%
N[C@@H]1CONC1=O,30 µg/mL,,35 strains,agar,inhibition,100%
Cc1c[nH]c(C(=O)NN)c1-c1cc2c(-c3ccccc3)nc3ccccc3n2c1,,,H37Rv,,MIC,<12.5 µg/mL
O=C(/C=C/c1c(F)cccc1Cl)c1ccccc1,,21 d,H37Rv,MTT,MIC,16 µg/mL
Cn1c2ccccc2c2cc(C=NNc3nc(-c4ccc([N+](=O)[O-])cc4)cs3)ccc21,,,H37Rv,fluorescence,EC90,>200 µM
COc1cccc(N=Nc2c(C)nn(C(=S)S)c2C)c1,,,H37Rv,BACTEC,MIC,≥12.5 µg/mL
O=c1c2c(OC3OC(CO)C(O)C(O)C3O)cc(O)cc2oc2c(O)ccc(O)c12,,,,,MIC,200 µg/mL
CN(C)NC(=O)c1ccc(NC(=O)c2ccc(C(=O)Nc3ccc(C(=O)NN(C)C)cc3)cc2)cc1,,,H37Rv,BACTEC,MIC,≥12.5 µg/mL
Clc1ccc(CNc2ccccc2-n2ccnc2)cc1,,,103471,,MIC,8 µg/mL
CC#CC#C/C=C1\C=CC2(OC=CC2OC(C)=O)O1,,,PAS-R,,MIC,12.5 µg/mL
CC/C=C/[C@H](CC)C/C(=C/[C@@]1(CC)C[C@H](CC)[C@H](CC(=O)O)OO1)CC,64 µg/mL,,,,inhibition,78%
O=C(Cc1csc2nc(-c3ccccc3)cn12)N/N=C/c1cc(Br)ccc1O,,,H37Rv,,EC50,>12.5 µg/mL
COc1ccc(C(=O)/C=C/c2ccc(F)cc2Cl)cc1,,14 d,H37Rv,MTT,MIC,64 µg/mL
C[P+]1(C)CCc2c1ccc1ccccc21,6.25 µg/mL,,H37Rv,resazurin,inhibition,99%
Cc1c[nH]c(C(=O)O)c1-c1ccc2c(-c3ccccc3)nc3ccccc3n12,12.5 µg/mL,,H37Rv,,inhibition,11%
C=C1C(=O)N2c3ccccc3C(C)(C)C2(S)C(=O)N1C,,,H37Rv,resazurin,MIC,6.25 µg/mL
CC(=O)OCC1=C(C(=O)O)N2C(=O)[C@@H](NC(=O)Cc3cccs3)[C@H]2SC1,,,Isolate 3,,MIC,>16 µg/mL
CC1=C(O)c2cccc(O)c2C(=O)C1=O,,,CIBIN 99 (MDR-MTB),resazurin,MIC,25 µg/mL
C=C1C(=O)OC2C1C(OC(=O)/C(C)=C/C)CC(=C)C1C(O)C3OC3(C)C21O,12.5 µg/mL,,H37Rv,BACTEC,inhibition,4%
Nc1ccc(C(=O)O)c(O)c1,,,592 strains,agar,EC50,<2 µg/mL
CSCCC(NOC(=O)Cc1ccccc1)P(=O)(O)c1ccccc1,12.5 µg/mL,,H37Rv,BACTEC,inhibition,0%
C=CCNC(=S)Nc1ccc(-c2nnc(SCc3ccc(Cl)cc3Cl)n2-c2ccccc2)cc1,,,H37Rv,,MIC,6.25 µg/mL
Clc1ccc(CNc2ccc(N3CCOCC3)cc2)cc1,,,103471,,MIC,>16 µg/mL
O=c1c2ccc(O)c(O)c2oc2cc(O)cc(O)c12,,,,,MIC,10 µg/mL
O=c1c2ccccc2sc2c1c(N(CCO)CCO)cc1ccccc12,12.5 µg/mL,,H37Rv,BACTEC,inhibition,89%
CN1CCN(c2cc3c(cc2F)c(=O)c(C(=O)O)cn3-c2ccc(F)cc2)CC1,,,27 strains,,MIC90,8 µg/mL
Cn1c2ccccc2c2cc(C=NNc3nc(-c4ccccc4O)cs3)ccc21,,,H37Rv,fluorescence,EC90,>50 µM
Cc1ccc(C(=O)/C=C/c2ccccc2)cc1,,14 d,H37Rv,MTT,MIC,32 µg/mL
O=[N+]([O-])c1ccc(Oc2cnc3nc(-c4ccccc4Br)[nH]c3c2)cc1,,,H37Rv,resazurin / absorbance,MIC80,2.1 µM
NNC(=O)c1ccncc1,,,H37Rv,turbidity,EC50,0.06 µM
CCOC1CC2CC3C4CCC5=CC(=O)CCC5(C)C4CCC3(C)C2=C(C)O1,,,H37Rv,BACTEC,MIC bound,>12.5 µg/mL
COc1ccc2c(=O)c3c(O)cc(O)cc3oc2c1O,,,,,MIC,40 µg/mL
O=C(/C=C/c1ccc(F)cc1Cl)c1ccc(F)cc1,,7 d,H37Rv,resazurin,MIC,16 µg/mL
Cn1c2ccccc2c2cc(C=NNc3nc(-c4cccs4)cs3)ccc21,,,H37Rv,fluorescence,EC50,>50 µM
CC1=CC(=O)c2c(ccc(-c3ccc4c(c3O)C(=O)C=C(C)C4=O)c2O)C1=O,,,H37Rv (S-MTB),resazurin,MIC,>100 µg/mL
O=[N+]([O-])c1ccc(Oc2cnc3nc(-c4ccc(O)c(O)c4)[nH]c3c2)cc1,,,H37Rv,resazurin / absorbance,MIC80,1.2 µM
CC[C@H](/C=C/[C@@H](C)[C@H]1CC[C@H]2[C@@H]3C(=O)C=C4C[C@@H](O)CC[C@]4(C)[C@H]3CC[C@]12C)C(C)C,,,,broth dilution,MIC90,2.3 µg/mL
CO/N=C(\C(=O)N[C@@H]1C(=O)N2C(C(=O)O)=CCS[C@H]12)c1csc(N)n1,,,26 strains,,MIC90,>64 µg/mL
O=[N+]([O-])c1cccnc1Sc1nc2ccccc2[nH]1,,,H37Rv,resazurin,MIC bound,>6.25 µg/mL
COc1cc(O)c2c(=O)c3cc(OC)c(OC)cc3oc2c1,,,,,MIC,100 µg/mL
O=C(Cc1csc2nc(-c3ccccc3)cn12)N/N=C/c1ccc([N+](=O)[O-])o1,,,H37Rv,,EC50,<12.5 µg/mL
C(=C\c1ccccc1)/CCNc1cccc(N2CCSCC2)c1,,,103471,,MIC,>16 µg/mL
O=C(/C=C/c1ccccc1Cl)c1ccc(F)cc1,,21 d,H37Rv,MTT,MIC,32 µg/mL
CC[C@H]1OC(=O)[C@H](C)[C@@H](O[C@H]2C[C@@](C)(OC)[C@@H](O)[C@H](C)O2)[C@H](C)[C@@H](O[C@@H]2O[C@H](C)C[C@H](N(C)C)[C@H]2O)[C@](C)(OC)C[C@@H](C)C(=O)[C@H](C)[C@@H](O)[C@]1(C)O,,,30 strains,,MIC50,>10 µg/mL
CO[C@H]1/C=C/O[C@@]2(C)Oc3c(C)c(O)c4c(O)c(c(/C=N/N5CCN(C)CC5)c(O)c4c3C2=O)NC(=O)/C(C)=C\C=C\[C@H](C)[C@H](O)[C@@H](C)[C@@H](O)[C@@H](C)[C@H](OC(C)=O)[C@@H]1C,,,CIBIN 99 (MDR-MTB),resazurin,MIC,100 µg/mL
Cc1ccccc1-c1nc2ncc(Oc3ccc([N+](=O)[O-])cc3)cc2[nH]1,,,H37Rv,resazurin / absorbance,MIC80,1.2 µM
O=C(Cc1csc2nc(-c3ccccc3)cn12)N/N=C/c1c(Cl)cccc1Cl,,,H37Rv,,EC50,>12.5 µg/mL
Cn1c2ccccc2c2cc(C=NNc3nc(-c4cc5cc(Br)ccc5oc4=O)cs3)ccc21,,,H37Rv,fluorescence,EC90,>200 µM
O=C(O)[C@H]1/C(=C/CO)O[C@@H]2CC(=O)N21,,,Isolate 2,,MIC,>16 µg/mL
Cn1c2ccccc2c2cc(C=NNc3nc(-c4cccc([N+](=O)[O-])c4)cs3)ccc21,,,H37Rv,fluorescence,EC50,>200 µM
CCCN(CCC)c1ccc(N=Nc2ccccc2C(=O)O)cc1,,,H37Rv,resazurin,MIC bound,<6.25 µg/mL
O=C(/C=C/c1ccc(F)cc1Cl)c1ccccc1,,7 d,H37Rv,MTT,MIC,32 µg/mL
O=C1Nc2cnc(Cl)nc2Nc2ccccc21,12.5 µg/mL,,H37Rv,BACTEC,inhibition,60%
CC(C)C[C@@H]1NC(=O)[C@H](Cc2c[nH]c3ccccc23)NC(=O)[C@@H](CCCN)NC(=O)[C@H](CC(N)=O)NC(=O)[C@H](C(C)C)NC(=O)[C@@H](CC(C)C)NC1=O,,,H37Ra,turbidity,EC50,0.37 µM
COc1cc2c(cc1OC)-c1c3c(cc4c1[C@@H](C2)N(C)CC4)OCO3,,,H37Rv,BACTEC,MIC,≥12.5 µg/mL
COc1ccc(-c2nc3ncc(Oc4ccc([N+](=O)[O-])cc4)cc3[nH]2)cc1OC,,,H37Rv,resazurin / absorbance,MIC80,1.4 µM
Clc1ccc(CNc2cccc(N3CCSCC3)c2)cc1,,,103471,,MIC,8 µg/mL
O=[N+]([O-])c1ccc(-c2ccc(C3=Nn4c(nnc4-c4ccc(Cl)cc4)SC3)o2)cc1,,,H37Rv,BACTEC,MIC bound,>12.5 µg/mL
Cc1c(N)nc([C@H](CC(N)=O)NC[C@H](N)C(N)=O)nc1C(=O)N[C@H](C(=O)N[C@H](C)[C@@H](O)[C@H](C)C(=O)N[C@H](C(=O)NCCc1nc(-c2nc(C(=O)NCCC[S+](C)C)cs2)cs1)[C@@H](C)O)C(O[C@@H]1O[C@@H](CO)[C@@H](O)[C@H](O)[C@@H]1O[C@H]1O[C@H](CO)[C@@H](O)[C@H](OC(N)=O)[C@@H]1O)c1cnc[nH]1,,,,broth dilution,EC50,0.1 µg/mL
O=[N+]([O-])c1ccc(Oc2cnc3nc(-c4ccccc4F)[nH]c3c2)cc1,,,H37Rv,resazurin / absorbance,MIC80,1 µM
CN(CC(O)C(O)CN(C)C(=S)[S-])C(=S)[S-].[K+].[K+],,,H37Rv,BACTEC,MIC bound,>12.5 µg/mL
CCCCS(=N)(=O)CC[C@H](N)C(=O)O,,,,broth dilution,EC50,8 µg/mL
CC1COc2c(N3CCN(C)CC3)c(F)cc3c(=O)c(C(=O)O)cn1c23,,,H37Rv (S-MTB),resazurin,MIC,0.25 µg/mL
CC/C=C/[C@H](CC)C/C(=C/[C@]1(CC)C[C@@](/C=C/C(=O)O)(CC)OO1)CC,64 µg/mL,,,,inhibition,72%
CO[C@@]1(NC(=O)Cc2cccs2)C(=O)N2C(C(=O)O)=C(COC(N)=O)CS[C@@H]21,,,Isolate 3,,MIC,>16 µg/mL
COC(=O)C1=C(C(=O)OC)P2(c3ccccc3)(c3ccccc3)S/C(=N\P(C)(C)=S)N2C1(c1ccccc1)c1ccccc1,,,H37Rv,BACTEC,MIC bound,>12.5 µg/mL
CC(C)C[C@@H]1NC(=O)[C@H](Cc2c[nH]c3ccccc23)NC(=O)[C@H](CCCCN)NC(=O)[C@H](CC(N)=O)NC(=O)[C@H](C(C)C)NC(=O)[C@@H](CC(C)C)NC1=O,,,H37Rv,turbidity,EC50,>30 µM
CN(C)C1C(=O)C(C(=O)NCNC(C=O)C(O)C(O)C(O)CO)=C(O)C2(O)C(=O)C3=C(O)c4c(O)cccc4C(C)(O)C3CC12.CS(=O)(=O)O,,,H37Rv,BACTEC,MIC bound,>12.5 µg/mL
CCC(CO)NC(=O)CO,,,,broth dilution,MIC90,29.5 µg/mL
CC1=NN(C(=O)c2ccncc2)C(=O)C1N=Nc1ccc(S(N)(=O)=O)cc1,12.8 µg/mL,,H37Rv,BACTEC,inhibition,25%
CC1=C(C2=C(C)C(=O)c3cccc(O)c3C2=O)C(=O)c2c(O)cccc2C1=O,,,H37Rv (S-MTB),resazurin,MIC,3.13 µg/mL
Cc1nccc2c(C)c3sc4ccccc4c3cc12,,,H37Rv,resazurin,MIC bound,<6.25 µg/mL
COc1ccc(C(=O)/C=C/c2ccc(F)cc2)c(F)c1,,7 d,H37Rv,MTT,MIC,32 µg/mL

9 of the rows above, restated:

compound | tested at | conditions | strain | read by | measure | result
CN(C)NC(=O)c1ccc(NC(=O)c2ccc(C(=O)Nc3ccc(C(=O)NN(C)C)cc3)cc2)cc1 |  |  | H37Rv | BACTEC | MIC | ≥12.5 µg/mL
CCCN(CCC)c1ccc(N=Nc2ccccc2C(=O)O)cc1 |  |  | H37Rv | resazurin | MIC bound | <6.25 µg/mL
CO[C@@]1(NC(=O)Cc2cccs2)C(=O)N2C(C(=O)O)=C(COC(N)=O)CS[C@@H]21 |  |  | Isolate 3 |  | MIC | >16 µg/mL
CN(CC(O)C(O)CN(C)C(=S)[S-])C(=S)[S-].[K+].[K+] |  |  | H37Rv | BACTEC | MIC bound | >12.5 µg/mL
Cn1c2ccccc2c2cc(C=NNc3nc(-c4cc5cc(Br)ccc5oc4=O)cs3)ccc21 |  |  | H37Rv | fluorescence | EC90 | >200 µM
COc1cccc(N=Nc2c(C)nn(C(=S)S)c2C)c1 |  |  | H37Rv | BACTEC | MIC | ≥12.5 µg/mL
O=C(Cc1csc2nc(-c3ccccc3)cn12)N/N=C/c1ccc([N+](=O)[O-])o1 |  |  | H37Rv |  | EC50 | <12.5 µg/mL
CO[C@H]1/C=C/O[C@@]2(C)Oc3c(C)c(O)c4c(O)c(c(/C=N/N5CCN(C)CC5)c(O)c4c3C2=O)NC(=O)/C(C)=C\C=C\[C@H](C)[C@H](O)[C@@H](C)[C@@H](O)[C@@H](C)[C@H](OC(C)=O)[C@@H]1C |  |  | CIBIN 99 (MDR-MTB) | resazurin | MIC | 100 µg/mL
C(=C\c1ccccc1)/CCNc1cccc(N2CCSCC2)c1 |  |  | 103471 |  | MIC | >16 µg/mL

MIC bound: limit read from a one-dose screen. MIC50, MIC90 and the like: level of inhibition, or share of isolates inhibited. Percent inhibition refers to the dose given; in toxicity tests it is the harm to the cells. Blank or dashed fields: not listed here. ECn is the concentration giving n% inhibition of infection, replication or growth.